# PSTVd loop 15 mutant pool in Nicotiana benthamiana

Data from the supplement of Wu et al. 2024, doi:10.1371/journal.ppat.1012142.

PSTVd intermediate strain, loop 15: wild type GGAAACCGCUACUAC, pool pattern GGAAACCGNNNNNNC; upper and lower strand joined, each 5' to 3', the first 7 letters being the upper strand, closing pairs included.

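A pool of all variants was put on leaves of three Nicotiana benthamiana plants. Progeny were sequenced from the inoculated region (day 5), the margin of the inoculated leaf (day 10) and systemic leaves (day 12).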

Numbers give reads per thousand; 0 = not seen among the reads, higher = more abundant. Each site shows the three plants. "Pool" is the share in the plasmid pool used as inoculum, on the same scale. The inoculated region was read from the minus strand, the other sites from the plus strand. IR is the inoculated region, LM the leaf margin, Sys the systemic leaves. Wild type was 33.9 per thousand in the pool and the most common sequence in every sample (inoculated region 202, 200, 159; leaf margin 724, 746, 710; systemic leaves 856, 883, 880). Sequences that differ at fixed positions probably stem from PCR or sequencing errors, and defective variants can be carried along by functional ones. Samples held 43,870 to 66,106 reads, so the smallest values rest on one or two reads.

sequence,pool,IR,LM,Sys
GGAAACCGAACUUAC,0.192,0.344 / 0.369 / 0.381,0.0647 / 0 / 0.140,0.0644 / 0 / 0
GGAAACCGAACUUCC,0.256,0.213 / 0.0803 / 0.0571,0.0323 / 0.0223 / 0.0401,0 / 0 / 0
GGAAACCGAACUUGC,0.240,0.147 / 0.112 / 0.133,0 / 0 / 0.0601,0 / 0 / 0
GGAAACCGAACUUUC,0.192,0.246 / 0.305 / 0.381,0 / 0.0223 / 0.0200,0 / 0 / 0
GGAAACCGAAGAAAC,0.240,0.197 / 0.129 / 0.0952,0 / 0 / 0,0 / 0 / 0
GGAAACCGAAGAACC,0.256,0.0983 / 0.129 / 0.114,0 / 0 / 0.0401,0 / 0 / 0
GGAAACCGAAGAAGC,0.192,0.0328 / 0.129 / 0.152,0 / 0 / 0.0200,0 / 0 / 0
GGAAACCGAAGAAUC,0.192,0.180 / 0.0964 / 0.0952,0.0162 / 0 / 0.0200,0 / 0 / 0
GGAAACCGAAGACAC,0.304,0.147 / 0.0482 / 0.0952,0 / 0 / 0,0 / 0 / 0
GGAAACCGAAGACCC,0.208,0.115 / 0.112 / 0.0190,0 / 0 / 0,0 / 0 / 0
GGAAACCGAAGACGC,0.304,0.147 / 0.0321 / 0.0762,0 / 0 / 0.0200,0 / 0 / 0
GGAAACCGAAGACUC,0.176,0.147 / 0.0482 / 0.0762,0 / 0 / 0.0200,0 / 0 / 0
GGAAACCGAAGAGAC,0.192,0.0819 / 0.0803 / 0.0571,0 / 0 / 0.0200,0.0161 / 0 / 0
GGAAACCGAAGAGCC,0.144,0.115 / 0.145 / 0,0.0162 / 0 / 0,0 / 0 / 0
GGAAACCGAAGAGGC,0.128,0 / 0.0482 / 0.0762,0 / 0 / 0.0200,0.0161 / 0 / 0
GGAAACCGAAGAGUC,0.336,0.213 / 0.321 / 0.190,0.0162 / 0.0223 / 0.0200,0 / 0 / 0
GGAAACCGAAGAUAC,0.336,0.541 / 0.337 / 0.495,0.0970 / 0.178 / 0.260,0.113 / 0 / 1.23
GGAAACCGAAGAUCC,0.352,0.0655 / 0.112 / 0.152,0 / 0.0223 / 0,0 / 0 / 0
GGAAACCGAAGAUGC,0.240,0.0164 / 0.0643 / 0.0952,0 / 0.0223 / 0,0 / 0 / 0
GGAAACCGAAGAUUC,0.272,0.377 / 0.418 / 0.381,0.0162 / 0 / 0.0200,0.0161 / 0 / 0
GGAAACCGAAGCAAC,0.224,0.0655 / 0.0803 / 0.0952,0.0162 / 0 / 0,0.0161 / 0 / 0
GGAAACCGAAGCACC,0.352,0.0655 / 0.0321 / 0.0952,0.0323 / 0 / 0.0200,0 / 0 / 0.0228
GGAAACCGAAGCAGC,0.208,0.0819 / 0.0964 / 0.0762,0.0162 / 0.0223 / 0.0200,0 / 0 / 0
GGAAACCGAAGCAUC,0.352,0.278 / 0.289 / 0.190,0 / 0.0223 / 0,0 / 0 / 0
GGAAACCGAAGCCAC,0.256,0.0983 / 0.0161 / 0.0952,0.0162 / 0 / 0,0.0322 / 0 / 0
GGAAACCGAAGCCCC,0.128,0.164 / 0.112 / 0.0571,0 / 0.0223 / 0,0 / 0 / 0
GGAAACCGAAGCCGC,0.272,0.0983 / 0.0964 / 0.0952,0 / 0 / 0,0 / 0 / 0.0228
GGAAACCGAAGCCUC,0.224,0.147 / 0.0482 / 0.152,0.0162 / 0 / 0,0 / 0 / 0
GGAAACCGAAGCGAC,0.384,0.0655 / 0.161 / 0.0952,0 / 0 / 0.0200,0 / 0 / 0
GGAAACCGAAGCGCC,0.0960,0.0983 / 0.0161 / 0.133,0 / 0 / 0,0 / 0 / 0
GGAAACCGAAGCGGC,0.192,0.491 / 0.289 / 0.248,0.0323 / 0 / 0.0200,0.0322 / 0 / 0
GGAAACCGAAGCGUC,0.336,0.0983 / 0.0643 / 0.152,0 / 0 / 0.0200,0 / 0 / 0
GGAAACCGAAGCUAC,0.256,0.360 / 0.450 / 0.457,0.0970 / 0.0445 / 0.180,0.0161 / 0 / 0.0228
GGAAACCGAAGCUCC,0.336,0.0491 / 0.0964 / 0.0762,0.0485 / 0 / 0,0 / 0 / 0
GGAAACCGAAGCUGC,0.192,0.147 / 0.0964 / 0.209,0 / 0.0223 / 0,0 / 0 / 0
GGAAACCGAAGCUUC,0.208,0.0819 / 0.112 / 0.114,0.0162 / 0 / 0.0401,0 / 0 / 0.0228
GGAAACCGAAGGAAC,0.208,0.0983 / 0.0643 / 0.0762,0.0162 / 0 / 0.0200,0 / 0 / 0
GGAAACCGAAGGACC,0.480,0.131 / 0.0643 / 0.114,0 / 0 / 0,0 / 0 / 0
GGAAACCGAAGGAGC,0.256,0.0983 / 0.0482 / 0.0762,0.0162 / 0 / 0.0200,0 / 0 / 0
GGAAACCGAAGGAUC,0.240,0.131 / 0.112 / 0.152,0 / 0.0223 / 0,0 / 0 / 0
GGAAACCGAAGGCAC,0.224,0.0328 / 0.0482 / 0.0952,0 / 0.0223 / 0.0200,0 / 0 / 0
GGAAACCGAAGGCCC,0.224,0.0655 / 0.0803 / 0.0952,0.0162 / 0 / 0,0 / 0 / 0
GGAAACCGAAGGCGC,0.176,0.115 / 0.209 / 0.133,0 / 0 / 0,0 / 0 / 0
GGAAACCGAAGGCUC,0.192,0.115 / 0.112 / 0.0952,0 / 0 / 0.0200,0 / 0 / 0
GGAAACCGAAGGGAC,0.192,0.0328 / 0.0803 / 0.209,0 / 0 / 0,0 / 0 / 0.0228
GGAAACCGAAGGGCC,0.256,0.0491 / 0.0803 / 0.114,0 / 0 / 0,0 / 0 / 0
GGAAACCGAAGGGGC,0.288,0.0819 / 0.0803 / 0.114,0 / 0 / 0.0200,0 / 0 / 0
GGAAACCGAAGGGUC,0.208,0.0328 / 0.0803 / 0.133,0.0162 / 0.0223 / 0,0 / 0 / 0
GGAAACCGAAGGUAC,0.336,0.278 / 0.273 / 0.305,0.0970 / 0.0891 / 0.120,0 / 0.0605 / 0.182
GGAAACCGAAGGUCC,0.160,0.0819 / 0.0964 / 0.0762,0 / 0.0223 / 0.0200,0 / 0 / 0
GGAAACCGAAGGUGC,0.176,0.0819 / 0.0803 / 0.0762,0 / 0 / 0.0200,0 / 0 / 0
GGAAACCGAAGGUUC,0.240,0.229 / 0.241 / 0.305,0.129 / 0.156 / 0.140,0.0161 / 0 / 0
GGAAACCGAAGUAAC,0.256,0.147 / 0.177 / 0.133,0.0323 / 0 / 0,0.0322 / 0 / 0
GGAAACCGAAGUACC,0.240,0.131 / 0.0482 / 0.0952,0 / 0 / 0.0200,0 / 0 / 0
GGAAACCGAAGUAGC,0.192,0.0491 / 0.177 / 0.0952,0.0162 / 0 / 0,0 / 0 / 0
GGAAACCGAAGUAUC,0.128,0.115 / 0.0803 / 0.171,0 / 0 / 0.0200,0 / 0 / 0
GGAAACCGAAGUCAC,0.256,0.164 / 0.0643 / 0.0762,0 / 0 / 0.0200,0.0322 / 0 / 0

Extract of 7 entries:

{"sequence": "GGAAACCGAAGAAUC", "pool": "0.192", "IR": "0.180 / 0.0964 / 0.0952", "LM": "0.0162 / 0 / 0.0200", "Sys": "0 / 0 / 0"}
{"sequence": "GGAAACCGAAGCAGC", "pool": "0.208", "IR": "0.0819 / 0.0964 / 0.0762", "LM": "0.0162 / 0.0223 / 0.0200", "Sys": "0 / 0 / 0"}
{"sequence": "GGAAACCGAAGCACC", "pool": "0.352", "IR": "0.0655 / 0.0321 / 0.0952", "LM": "0.0323 / 0 / 0.0200", "Sys": "0 / 0 / 0.0228"}
{"sequence": "GGAAACCGAAGCUGC", "pool": "0.192", "IR": "0.147 / 0.0964 / 0.209", "LM": "0 / 0.0223 / 0", "Sys": "0 / 0 / 0"}
{"sequence": "GGAAACCGAAGGAAC", "pool": "0.208", "IR": "0.0983 / 0.0643 / 0.0762", "LM": "0.0162 / 0 / 0.0200", "Sys": "0 / 0 / 0"}
{"sequence": "GGAAACCGAACUUUC", "pool": "0.192", "IR": "0.246 / 0.305 / 0.381", "LM": "0 / 0.0223 / 0.0200", "Sys": "0 / 0 / 0"}
{"sequence": "GGAAACCGAAGGUCC", "pool": "0.160", "IR": "0.0819 / 0.0964 / 0.0762", "LM": "0 / 0.0223 / 0.0200", "Sys": "0 / 0 / 0"}